Source: PubChem BioAssay AID588497 (NMMLSC, 2011)
This is a selection; strong and weak results do not stand in their true shares. Results filed as inconclusive are left out. Activity calls are given as the source filed them. Rule as the data show it: active = inhibition above about 35% (passing the limit was not always enough); inconclusive = no clear call, values can overlap the other calls.

system: Botulinum neurotoxin type F light chain protease (Clostridium botulinum); test: BoNT/F light chain protease inhibitors, primary screen, biochemical, flow cytometry, MLPCN library (AID 588497); details: Multiplex microsphere protease cleavage assay, at 10 µM, active compounds read high; also: plate controls were buffer without enzyme for full effect and enzyme alone for no effect

SMILES	inhibition
O=[N+]([O-])c1cc([N+](=O)[O-])c(Nc2ccc(Cl)cc2)c([N+](=O)[O-])c1	inactive: -4.3%
CP(=O)(Nc1ccccn1)Oc1ccccc1 (stereo not given)	inactive: 15.5%
COc1ccccc1OP(C)(=O)Nc1ccc(C)cc1C (stereo not given)	inactive: 4.5%
CCc1ccc(OP(C)(=O)O)cc1	inactive: 5.2%
O=[N+]([O-])c1cc([N+](=O)[O-])c(Nc2ccccn2)c([N+](=O)[O-])c1	inactive: 1.4%
Cc1c(NP(C)(=O)Oc2ccc(C(C)C)cc2)c(=O)n(-c2ccccc2)n1C (stereo not given)	active: 34.9%
COc1ccc(OP(C)(=O)Nc2ccccn2)cc1 (stereo not given)	inactive: 1.8%
CN(C)CCOC(=O)C(O)(c1ccccc1)C1CCCC1 (stereo not given)	inactive: 0.1%
COc1ccccc1OP(C)(=O)Nc1ccc(Br)cc1 (stereo not given)	inactive: -8.7%
CP(=O)(OCCOc1ccccc1)OCCOc1ccccc1	inactive: 0.5%
CCCCCCCCCCCCCCCC1C[N+](C)(C)CCOP(C)(=O)O1 (stereo not given)	inactive: -20.4%
CP(=O)(Nc1ccc(Cl)cc1Cl)Oc1ccccc1 (stereo not given)	inactive: -1.2%
COc1ccccc1OP(C)(=O)Nc1ccc(C)c(C)c1 (stereo not given)	inactive: 9%
COc1ccc(OP(C)(=O)Nc2ccccc2Br)cc1 (stereo not given)	inactive: 0.1%
O=C1C(O)=C([N+](=O)[O-])C(=O)C(O)=C1[N+](=O)[O-]	inactive: -9.5%
Cc1cc(C)cc(OP(C)(=O)Nc2cccc(C(F)(F)F)c2)c1 (stereo not given)	inactive: 6.5%
CCOC(=O)c1ccc(NP(C)(=O)Oc2ccc(Cl)cc2)cc1 (stereo not given)	inactive: -4%
CP(=O)(OC12CC3CC(CC(C3)C1)C2)OC12CC3CC(CC(C3)C1)C2	inactive: -1.5%
CN(C)C(=O)c1c([N+](=O)[O-])cc([N+](=O)[O-])cc1[N+](=O)[O-]	inactive: 0.8%
CC(C)(C)c1ccc(OP(C)(=O)O)cc1	inactive: -1.5%
COc1ccccc1OP(C)(=O)Nc1ccccc1Br (stereo not given)	inactive: -2.4%
CP(=O)(Nc1ccc(Cl)cc1)Oc1ccc(F)cc1 (stereo not given)	inactive: -15.5%
COc1ccccc1OP(C)(=O)Nc1c(C)n(C)n(-c2ccccc2)c1=O (stereo not given)	inactive: -1.5%
CP(=O)(Oc1ccccc1)N1CCOC1=O (stereo not given)	inactive: -0.9%

SMILES	inhibition
CCc1ccc(OP(C)(=O)Nc2cccnc2)cc1 (stereo not given)	inactive: -3%
CCN(CC)CC(O)COC(=O)C(O)(c1ccccc1)C1CCCCC1 (stereo not given)	inactive: 14.3%
COc1ccc(OP(C)(=O)Nc2ccc(Br)cc2)cc1 (stereo not given)	inactive: -1%
CP(=O)(Nc1ccccn1)Oc1ccc(Cl)cc1 (stereo not given)	inactive: -3.6%
CCOC(=O)c1ccc(NP(C)(=O)Oc2ccc(OC)cc2)cc1 (stereo not given)	inactive: -2.8%
CCOP(C)(=S)SCC(=O)NC(C)C(=O)O (stereo not given)	inactive: -4%
CCc1ccc(OP(C)(=O)N2CCN(c3ccc([N+](=O)[O-])cc3)CC2)cc1 (stereo not given)	inactive: 25.2%
CP(=O)(NC(=O)Nc1ccccc1)Oc1ccccc1 (stereo not given)	inactive: -3.2%
Cc1cc(C)cc(OP(C)(=O)Nc2ccc(SC(F)(F)F)cc2)c1 (stereo not given)	inactive: 2.5%
Cc1ccc(Nc2c([N+](=O)[O-])cc([N+](=O)[O-])cc2[N+](=O)[O-])cc1	inactive: -6.6%
Cc1cccc(C)c1OP(C)(=O)Nc1ccc(SC(F)(F)F)cc1 (stereo not given)	inactive: -6.6%
CP(=O)(Nc1ccc(SC(F)(F)F)cc1)Oc1ccc(Cl)cc1 (stereo not given)	inactive: -11.3%
CP(=O)(Oc1ccccc1)OC(c1ccccc1)C(F)(F)F (stereo not given)	inactive: -5.3%
CP(=O)(Nc1ccccc1Br)Oc1ccccc1 (stereo not given)	inactive: 4.1%
COc1ccccc1OP(C)(=O)Nc1ccccc1 (stereo not given)	inactive: 2.9%
CP(=S)(Nn1cnnc1)Oc1ccccc1 (stereo not given)	inactive: -11.5%
Cc1cc(C)cc(OP(C)(N)=O)c1 (stereo not given)	inactive: 4.5%
COc1ccccc1OP(C)(=O)Nc1cc(Cl)ccc1C (stereo not given)	inactive: -0.7%
COc1ccc(OP(C)(=O)Nc2cccc(F)c2)cc1 (stereo not given)	inactive: 3.5%
COc1ccccc1OP(C)(=O)Nc1ccc(C)cc1 (stereo not given)	inactive: -2.6%
Cc1ccc(NP(C)(=O)Oc2ccccc2)c(C)c1 (stereo not given)	inactive: 1.4%
CCOC(=O)c1ccc(NP(C)(=O)Oc2ccccc2)cc1 (stereo not given)	inactive: 1.4%
O=[N+]([O-])c1ccc2c(c1)C=Nc1ccccc1O2	inactive: 1.3%
CC(C)(C)c1ccc(OP(C)(=O)Nc2ccc(SC(F)(F)F)cc2)cc1 (stereo not given)	inactive: -15.9%

SMILES	inhibition
Cc1cccc(C)c1OP(C)(N)=O (stereo not given)	inactive: -4.5%
O=[N+]([O-])c1cc([N+](=O)[O-])c(Nc2cccnc2)c([N+](=O)[O-])c1	inactive: -12%
COc1ccccc1-c1ccccn1.O=[N+]([O-])c1cc([N+](=O)[O-])c(O)c([N+](=O)[O-])c1	inactive: 8.8%
CCN(CC)CCCOC(=O)C(O)(c1ccccc1)c1ccccc1	inactive: 3.5%
Cc1ccc(C)c(NP(C)(=O)Oc2ccccc2)c1 (stereo not given)	inactive: -50.4%
CP(=O)(Nc1cccc(Br)c1)Oc1ccccc1 (stereo not given)	inactive: -3.5%
Cc1cc(C)cc(OP(C)(=O)Nc2ccccn2)c1 (stereo not given)	inactive: 4.5%
CCOC(=O)c1ccc(NP(C)(=O)Oc2cc(C)cc(C)c2)cc1 (stereo not given)	inactive: -3.5%
Cc1cc(C)cc(OP(C)(=O)Nc2ccc(C)cc2C)c1 (stereo not given)	inactive: 6.6%
COc1ccccc1OP(C)(=O)Nc1cccc(Br)c1 (stereo not given)	inactive: -1.2%
CC1=NCCc2c1[nH]c1ccccc21.O=[N+]([O-])c1cc([N+](=O)[O-])c(O)c([N+](=O)[O-])c1	inactive: -9.5%
O=C(O)c1cccc(Nc2c([N+](=O)[O-])cc([N+](=O)[O-])cc2[N+](=O)[O-])c1	inactive: 2%
COc1ccc(-c2ccccn2)cc1.O=[N+]([O-])c1cc([N+](=O)[O-])c(O)c([N+](=O)[O-])c1	inactive: -11%
CP(=O)(Nc1ccc(SC(F)(F)F)cc1)Oc1ccccc1 (stereo not given)	inactive: -1.1%
CCCOc1ccc(NP(C)(=O)Oc2ccc(Cl)cc2)cc1 (stereo not given)	inactive: -6.3%
COc1ccccc1OP(C)(=O)Nc1c(C)cccc1C (stereo not given)	inactive: 6%
CN1CCCCC1COC(=O)C1(O)c2ccccc2CCc2ccccc21 (stereo not given)	inactive: -3.5%
CC1=C2N=C(C=C3N=C(C(C)=C4[N-][C@@](C)([C@@H]5N=C1[C@](C)(CCC(=O)NC[C@@H](C)OP(=O)([O-])O[C@H]1[C@@H](O)[C@@H](n6cnc7cc(C)c(C)cc76)O[C@@H]1CO)[C@H]5CC(N)=O)[C@@](C)(CC(N)=O)[C@@H]4CCC(N)=O)[C@@](C)(CC(N)=O)[C@@H]3CCC(N)=O)C(C)(C)[C@@H]2CCC(N)=O.[C-]#N.[Co+3]	inactive: -1.7%
CCOC(=O)C(CC)C1=NC(C)(C)Cc2ccccc21.O=[N+]([O-])c1cc([N+](=O)[O-])c(O)c([N+](=O)[O-])c1 (stereo not given)	inactive: 2.7%
Cc1nc2ccc3ccccc3c2s1.O=[N+]([O-])c1cc([N+](=O)[O-])c(O)c([N+](=O)[O-])c1	inactive: -1%
CN(Cc1cccnc1)C(=O)COc1ccc(Cl)c(Cl)c1.O=[N+]([O-])c1cc([N+](=O)[O-])c(O)c([N+](=O)[O-])c1	inactive: -9.9%
O=[N+]([O-])c1cc([N+](=O)[O-])c(-n2nnc3ccccc32)c([N+](=O)[O-])c1	inactive: 8.8%
